Pooled drug test results. Numbers come from NIAID ChemDB, via PubChem.

All rows: growth or infection tests; agent: Candida albicans; read by: agar diffusion; endpoint: zone

Conditions beyond the fields shown may differ between rows.

CSC1=NC(c2cccc3cc4ccccc4cc23)C(C#N)=C(N)N1 ; strain or isolate: MTCC 227 ; tested at: 25 µg/mL ; value: 17 mm
Cn1c(=O)c(-c2[nH][nH]c(=O)c2N=Nc2ccccc2Br)c(O)c2ccccc21 ; strain or isolate: ATCC 10231 ; tested at: 1 mg/mL ; value: 11 mm
O=C1CSC(c2ccc(Cl)cc2)N1Nc1nc2ccccc2n2nnnc12 ; strain or isolate: ATCC 2091 ; tested at: 50 µg/mL ; value: 9 mm
CS(=O)(=O)c1nc(N)c(C#N)c(-c2ccc(Cl)cc2)n1 ; strain or isolate: MTCC 227 ; tested at: 50 µg/mL ; value: 18 mm
O=C1C(Cl)C(c2ccccc2)N1Nc1nc2ccccc2n2nnnc12 ; strain or isolate: ATCC 2091 ; tested at: 100 µg/mL ; value: 9 mm
CCOC(=O)N1CCN(Cn2nc(C34CC5CC(CC(C5)C3)C4)n(/N=C/c3c(F)cccc3F)c2=S)CC1 ; strain or isolate: IFO 3007 ; tested at: 200 µg/disc ; value: <10 mm
COc1ccc(-c2nc(S(C)(=O)=O)nc(N)c2C#N)cc1 ; strain or isolate: MTCC 227 ; tested at: 25 µg/mL ; value: 17 mm
O=C1CSC(c2ccccc2Cl)N1Nc1nc2ccccc2n2nnnc12 ; strain or isolate: ATCC 2091 ; tested at: 100 µg/mL ; value: 13 mm
Fc1cccc(F)c1/C=N/n1c(C23CC4CC(CC(C4)C2)C3)nn(CN2CCN(c3cccc(C(F)(F)F)c3)CC2)c1=S ; strain or isolate: IFO 3007 ; tested at: 200 µg/disc ; value: <10 mm
CSC1=NC(/C=C/c2ccccc2)C(C#N)=C(N)N1 ; strain or isolate: MTCC 227 ; tested at: 50 µg/mL ; value: 18 mm
COc1cccc(/C=N/c2nnc(-c3cc4ccccc4oc3=O)o2)c1 ; strain or isolate: ATCC 10231 ; tested at: 100 µg/mL ; value: 14 mm
COc1cccc(CN(CC(O)C[N+](C)(C)C)[C@@H]2[C@@H](O)[C@H](O[C@@H]3O[C@H](COCC(=O)O)[C@@H](O[C@@H]4C[C@H](COCC(=O)O)[C@@H](C)[C@H](O)[C@H]4N(Cc4cccc(OC)c4)CC(O)C[N+](C)(C)C)[C@H](O)[C@H]3N(Cc3cccc(OC)c3)CC(O)C[N+](C)(C)C)[C@@H](COCC(=O)O)O[C@H]2C)c1 ; strain or isolate: RCMB 05031 ; tested at: 1 mg/mL ; value: 12.3 mm
CN1C(=O)/C(=c2/[nH][nH]c(=O)/c2=C\c2ccc3c(c2)OCO3)C(=O)c2ccccc21 ; strain or isolate: ATCC 10231 ; tested at: 1 mg/mL ; value: 14 mm
CC1(C)CCC2=C(C1=O)C(c1cccc(C3C4=C(CCC(C)(C)C4=O)OC4=C3C(=O)C(C)(C)CC4)c1)C1=C(CCC(C)(C)C1=O)O2 ; strain or isolate: ATCC 10231 ; tested at: 20 µg/disc ; value: 8 mm
Cn1c(=O)c(-c2[nH][nH]c(=O)c2C=Nc2ccccc2)c(O)c2ccccc21 ; strain or isolate: ATCC 10231 ; tested at: 1 mg/mL ; value: 10 mm
C[C@@H]1[C@@H](COCC(=O)O)C[C@@H](O[C@H]2[C@H](O)[C@@H](N(Cc3ccc(O)cc3)CC(O)C[N+](C)(C)C)[C@H](O[C@H]3[C@H](O)[C@@H](N(Cc4ccc(O)cc4)CC(O)C[N+](C)(C)C)[C@H](C)O[C@@H]3COCC(=O)O)O[C@@H]2COCC(=O)O)[C@H](N(Cc2ccc(O)cc2)CC(O)C[N+](C)(C)C)[C@H]1O ; strain or isolate: RCMB 05031 ; tested at: 1 mg/mL ; value: 14.5 mm
CSC1=NC(c2ccccc2Cl)C(C#N)=C(N)N1 ; strain or isolate: MTCC 227 ; tested at: 25 µg/mL ; value: 17 mm
O=C1C(Cl)C(c2ccccc2[N+](=O)[O-])N1Nc1nc2ccccc2n2nnnc12 ; strain or isolate: ATCC 2091 ; tested at: 100 µg/mL ; value: 11 mm
O=C1CCCC2=C1C(c1cccc(C3C4=C(CCCC4=O)OC4=C3C(=O)CCC4)c1)C1=C(CCCC1=O)O2 ; strain or isolate: ATCC 10231 ; tested at: 20 µg/disc ; value: 0 mm
O=c1oc2ccccc2cc1-c1nnc(/N=C/c2ccccc2F)o1 ; strain or isolate: ATCC 10231 ; tested at: 100 µg/mL ; value: 13 mm
S=c1[nH]nc(C23CC4CC(CC(C4)C2)C3)n1/N=C/c1ccc(Cl)c(Cl)c1 ; strain or isolate: IFO 3007 ; tested at: 200 µg/disc ; value: 12 mm
Cn1c(SCCN2CCCCC2)nnc1C12CC3CC(CC(C3)C1)C2 ; strain or isolate: IFO 0583 ; tested at: 200 µg/disc ; value: <10 mm
COc1cc(CN(CC(O)C[N+](C)(C)C)[C@@H]2[C@@H](O)[C@H](O[C@@H]3O[C@H](COCC(=O)O)[C@@H](O[C@@H]4C[C@H](COCC(=O)O)[C@@H](C)[C@H](O)[C@H]4N(Cc4ccc(O)c(OC)c4)CC(O)C[N+](C)(C)C)[C@H](O)[C@H]3N(Cc3ccc(O)c(OC)c3)CC(O)C[N+](C)(C)C)[C@@H](COCC(=O)O)O[C@H]2C)ccc1O ; strain or isolate: RCMB 05031 ; tested at: 1 mg/mL ; value: 15 mm
COc1ccc(C2CC(=O)C3=C(C2)OC2=C(C(=O)CC(c4ccc(OC)c(OC)c4)C2)C3c2cccc(C3C4=C(CC(c5ccc(OC)c(OC)c5)CC4=O)OC4=C3C(=O)CC(c3ccc(OC)c(OC)c3)C4)c2)cc1OC ; strain or isolate: ATCC 10231 ; tested at: 140 µg/disc ; value: 7 mm
O=C1CSC(c2ccc(F)cc2)N1Nc1nc2ccccc2n2nnnc12 ; strain or isolate: ATCC 2091 ; tested at: 50 µg/mL ; value: 8 mm
O=c1oc2ccccc2cc1-c1nnc(/N=C/c2cccc(O)c2)o1 ; strain or isolate: ATCC 10231 ; tested at: 100 µg/mL ; value: 11 mm
O=C1CSC(c2ccc(O)cc2)N1Nc1nc2ccccc2n2nnnc12 ; strain or isolate: ATCC 2091 ; tested at: 50 µg/mL ; value: 11 mm
C[C@@H]1[C@@H](COCC(=O)O)C[C@@H](O[C@H]2[C@H](O)[C@@H](N(Cc3ccccc3Cl)CC(O)C[N+](C)(C)C)[C@H](O[C@H]3[C@H](O)[C@@H](N(Cc4ccccc4Cl)CC(O)C[N+](C)(C)C)[C@H](C)O[C@@H]3COCC(=O)O)O[C@@H]2COCC(=O)O)[C@H](N(Cc2ccccc2Cl)CC(O)C[N+](C)(C)C)[C@H]1O ; strain or isolate: RCMB 05031 ; tested at: 1 mg/mL ; value: 17.4 mm
Clc1ccccc1C(c1ccccc1)(c1ccccc1)n1ccnc1 ; strain or isolate: IFO 0583 ; tested at: 100 µg/disc ; value: 21 mm
Oc1ccccc1/C=N/n1c(C23CC4CC(CC(C4)C2)C3)n[nH]c1=S ; strain or isolate: IFO 3007 ; tested at: 200 µg/disc ; value: <10 mm
O=C1CSC(c2ccc(C(F)(F)F)cc2)N1Nc1nc2ccccc2n2nnnc12 ; strain or isolate: ATCC 2091 ; tested at: 50 µg/mL ; value: 8 mm
CN(C)CCSc1nnc(C23CC4CC(CC(C4)C2)C3)n1C ; strain or isolate: IFO 0583 ; tested at: 200 µg/disc ; value: <10 mm
CSC1=NC(c2cccc([N+](=O)[O-])c2)C(C#N)=C(N)N1 ; strain or isolate: MTCC 227 ; tested at: 50 µg/mL ; value: 17 mm
CC(=O)N1CCN(c2ccc(OC[C@H]3CO[C@](Cn4ccnc4)(c4ccc(Cl)cc4Cl)O3)cc2)CC1 ; strain or isolate: ATCC 10231 ; tested at: 100 µg/mL ; value: 10 mm
Cn1c(=O)c(-c2[nH][nH]c(=O)c2/C=N/c2ccccn2)c(O)c2ccccc21 ; strain or isolate: ATCC 10231 ; tested at: 1 mg/mL ; value: 23 mm
O=C1C(Cl)C(c2ccc(O)cc2)N1Nc1nc2ccccc2n2nnnc12 ; strain or isolate: ATCC 2091 ; tested at: 100 µg/mL ; value: 12 mm
S=c1n(CN2CCN(c3ccccc3)CC2)nc(C23CC4CC(CC(C4)C2)C3)n1-c1ccccc1 ; strain or isolate: IFO 0583 ; tested at: 200 µg/disc ; value: <10 mm
CC1(C)CC(=O)C2=C(C1)OC1=C(C(=O)CC(C)(C)C1)C2c1ccc(C2C3=C(CC(C)(C)CC3=O)OC3=C2C(=O)CC(C)(C)C3)cc1 ; strain or isolate: ATCC 10231 ; tested at: 40 µg/disc ; value: 9 mm
CS(=O)(=O)c1nc(N)c(C#N)c(-c2ccccc2[N+](=O)[O-])n1 ; strain or isolate: MTCC 227 ; tested at: 50 µg/mL ; value: 18 mm
Clc1ccc(CSc2nnc(C34CC5CC(CC(C5)C3)C4)n2-c2ccccc2)cc1 ; strain or isolate: IFO 0583 ; tested at: 200 µg/disc ; value: <10 mm
O=c1oc2ccccc2cc1-c1nnc(/N=C/c2ccc(O)cc2)o1 ; strain or isolate: ATCC 10231 ; tested at: 100 µg/mL ; value: 9 mm

Again, the opening 5 rows:

| compound | strain or isolate | tested at | value |
|---|---|---|---|
| CSC1=NC(c2cccc3cc4ccccc4cc23)C(C#N)=C(N)N1 | MTCC 227 | 25 µg/mL | 17 mm |
| Cn1c(=O)c(-c2[nH][nH]c(=O)c2N=Nc2ccccc2Br)c(O)c2ccccc21 | ATCC 10231 | 1 mg/mL | 11 mm |
| O=C1CSC(c2ccc(Cl)cc2)N1Nc1nc2ccccc2n2nnnc12 | ATCC 2091 | 50 µg/mL | 9 mm |
| CS(=O)(=O)c1nc(N)c(C#N)c(-c2ccc(Cl)cc2)n1 | MTCC 227 | 50 µg/mL | 18 mm |
| O=C1C(Cl)C(c2ccccc2)N1Nc1nc2ccccc2n2nnnc12 | ATCC 2091 | 100 µg/mL | 9 mm |

Zones are inhibition diameters on agar.